Data set [1] has as its target protective antigen (PA) from B. anthracis, recombinant.
The target in data set [2] is F1mutV-PA triple antigen.

The source of these data is patent publication US20180264102.

B1: human furin (amino acid residues 1-604) (protein)
chain: QKVFTNTWAVRIPGGPAVANSVARKHGFLNLGQIFGDYYHFWHRGVTKRSLSPHRPRHSRLQREPQVQWLEQQVAKRRTKRDVYQEPTDPKFPQQWYLSGVTQRDLNVKAAWAQGYTGHGIVVSILDDGIEKNHPDLAGNYDPGASFDVNDQDPDPQPRYTQMNDNRHGTRCAGEVAAVANNGVCGVGVAYNARIGGVRMLDGEVTDAVEARSLGLNPNHIHIYSASWGPEDDGKTVDGPARLAEEAFFRGVSQGRGGLGSIFVWASGNGGREHDSCNCDGYTNSIYTLSISSATQFGNVPWYSEACSSTLATTYSSGNQNEKQIVTTDLRQKCTESHTGTSASAPLAAGIIALTLEANKNLTWRDMQHLVVQTSKPAHLNANDWATNGVGRKVSHSYGYGLLDAGAMVALAQNWTTVAPQRKCIIDILTEPKDIGKRLEVRKTVTACLGEPNHITRLEHAQARLTLSYNRRGDLAIHLVSPMGTRSTLLAARPHDYSADGFNDWAFMTTHSWDEDPSGEWVLEIENTSEANNYGTLTKFTLVLYGTAPEGLPVPPESSGCKTLTSSQACVVCEEGFS
For the protein B1, the “furin cleavage, products analysed by SDS-PAGE and Coomassie blue staining” value in data set [1] is “F1mut-PA and rPA had similar sensitivity to various concentrations of furin”; in data set [2] it was “F1mut-PA and rPA had similar sensitivity to various concentrations of furin”.
